For orientation: Kd means the equilibrium constant for the complex coming apart. Low values mean higher affinity, high ones lower affinity.

Among the data in paper PMC7963221 are Kd values, retold here.

For this test, the target named is SARS-CoV-2 RBD (WT) displayed on the surface of yeast (SARS-CoV-2) (UniProt P0DTC2). Nature of the test: FACS. (In flow cytometry, cells or beads pass a laser one at a time.)

Substance CB6/LY-CoV16 gave a Kd of 0.66 nM.
